Compound potency records, mixed from different reports. Data source: NIAID ChemDB in PubChem.

Shared fields: growth or infection tests; species: Adenovirus; measure: EC50

ECn is the concentration giving n% inhibition of infection, replication or growth. a–b is a range or a potency band. Conditions beyond the fields shown may differ between rows. An empty or dashed field is not shown.

SMILES	read by	cell line	strain	value
CSc1nsc(C)c1C#N	plaque count	HEP-2	TYPE 2	>100 µM
C#CCOc1cc(OC)ccc1-c1cc(N(CC)CC)no1	plaque count	VERO	ATCC VR10	>40 µM
NC(N)=Nc1cccc(C(=O)NCC(=O)NC(CC(=O)O)c2cc(Cl)cc(Cl)c2)c1		HUMAN 293/beta5	TYPE 2	10–100 µM
COc1ccc(-c2cc(N(C)C)no2)c(O)c1	plaque count	VERO	ATCC VR10	>427 µM
CCCCS(=O)(=O)NC(Cc1ccc(NC(=O)c2cccc(NC3=NCCCCC3)c2)cc1)C(=O)O		HUMAN 293/beta5	TYPE 2	>100 µM
COc1ccc(/C=N/N=C(\N)NO)cc1.Cc1ccc(S(=O)(=O)O)cc1	plaque count	VERO	ATCC VR18 (TYPE 17)	>50 µM
Nc1ncnc2c1ncn2[C@@H]1C[C@H](NC=O)[C@@H](O)[C@H]1O		HFF	TYPE 1	>100 µg/mL
CSc1nsc(-c2ccccn2)c1C#N	plaque count	HEP-2	TYPE 2	>50 µM
CC(C)Oc1ccccc1NC(=O)Nc1ccc2cnccc2n1	plaque count			>30 µg/mL
Nc1ncnc2c1ncn2C[C@H](O)CO	cytopathic effect	HEL	TYPES 1-8	>125 µg/mL
CCN(CC)c1cc(-c2ccc(O)cc2O)on1	plaque count	VERO	ATCC VR10	>121 µM
NS(=O)c1ncnc2c1ncn2[C@H]1C[C@H](O)[C@@H](CO)O1	cytopathic effect		TYPE 2	>320 µM
Nc1ccn([C@H]2CC[C@@H](CO)O2)c(=O)n1		HEP-2	TYPE 37	3.82 µg/mL
CC1(C(=O)O)CCC2(C)CCC3(C)C(=CC(=O)C4C5(C)CCC(OC(=O)C6CCCCC6C(=O)O)C(C)(C)C5CCC43C)C2C1	virus yield		TYPE 5	<30 µM
O=c1[nH]c(=O)n([C@H]2C[C@H](O)[C@@H](CO)O2)cc1I	plaque count	HeLa	TYPE 3	27.25 µg/mL
COc1ccc(-c2snc(SC)c2C#N)cc1	plaque count	HEP-2	TYPE 2	>10 µM
NCC(=O)N[C@@H](CCCN=C(N)N)C(=O)NCC(=O)N[C@@H](CC(=O)O)C(=O)N[C@@H](CO)C(=O)N1CCC[C@H]1C(=O)O		HUMAN 293/beta5	TYPE 2	2000 µM
CSc1nsc(-c2cccc(Cl)c2)c1C#N	plaque count	HEP-2	TYPE 2	>10 µM
NS(=O)(=O)c1ncnc2c1ncn2[C@@H]1O[C@H](CO)[C@@H](O)[C@@H]1O	cytopathic effect		TYPE 2	>320 µM
CSc1nsc(-c2cccc3ccccc23)c1C#N	plaque count	HEP-2	TYPE 2	>4 µM
COc1ccc(-c2cc(N3CCCCC3)no2)c(O)c1	plaque count	VERO	ATCC VR10	>364 µM
NC(=O)CCN(CCC(N)=O)S(=O)(=O)c1cccc(Nc2nc(Nc3cccc(S(=O)(=O)N(CCC(N)=O)CCC(N)=O)c3)nc(Nc3ccc(-c4ccc(Nc5nc(Nc6cccc(S(=O)(=O)N(CCC(N)=O)CCC(N)=O)c6)nc(Nc6cccc(S(=O)(=O)N(CCC(N)=O)CCC(N)=O)c6)n5)cc4S(=O)(=O)O)c(S(=O)(=O)O)c3)n2)c1	cytopathic effect	HEP-2	TYPE 5	>375 µg/mL
CC(C)CS[C@@H]1C=C[C@H](n2cnc3c(N)ncnc32)C1	cytopathic effect	A549	TYPE 1	>100 µg/mL
Cc1ccc(S(=O)(=O)O)cc1.N/C(=N\N=C\c1cccc2c([N+](=O)[O-])cccc12)NO	plaque count	A549	WT 300 (TYPE 5)	3.2 µM
O=C(O)CC(NC(=O)CNC(=O)c1cccc(NC2=NCCCN2)c1)c1cc(Cl)cc(Cl)c1		HUMAN 293/beta5	TYPE 2	>100 µM
CSc1nsc(-c2ccc(O)cc2)c1C#N	plaque count	HEP-2	TYPE 2	>2 µM
CCOc1ccc(-c2cc(N3CCCCC3)no2)c(O)c1	plaque count	VERO	ATCC VR10	>347 µM
Nc1nc2c(ncn2COC(CO)CO)c(=O)[nH]1	cytopathic effect	HeLa	TYPE 5	>400 µg/mL
O=c1[nH]c(=O)n([C@H]2C[C@H](O)[C@@H](CO)O2)cc1/C=C/Br	cytopathic effect	HEL	TYPES 1-8	>125 µg/mL
NS(=O)(=O)c1ncnc2c1ncn2[C@H]1C[C@H](O)[C@@H](CO)O1	cytopathic effect		TYPE 2	>320 µM
Cc1ccc(S(=O)(=O)O)cc1.N/C(=N/N=C/c1ccc2c(c1)OCO2)NO	plaque count	VERO	ATCC VR18 (TYPE 17)	>50 µM
COc1ccc(-c2cc(N3CCCC3)no2)c(O)c1	plaque count	VERO	ATCC VR10	>384 µM

Repeating the final 3 entries:

| SMILES | read by | cell line | strain | value |
|---|---|---|---|---|
| NS(=O)(=O)c1ncnc2c1ncn2[C@H]1C[C@H](O)[C@@H](CO)O1 | cytopathic effect |  | TYPE 2 | >320 µM |
| Cc1ccc(S(=O)(=O)O)cc1.N/C(=N/N=C/c1ccc2c(c1)OCO2)NO | plaque count | VERO | ATCC VR18 (TYPE 17) | >50 µM |
| COc1ccc(-c2cc(N3CCCC3)no2)c(O)c1 | plaque count | VERO | ATCC VR10 | >384 µM |